# Human monoclonal antibodies against the spike receptor-binding domain (heavy:light variable regions). IC50 against pseudoviruses bearing the spike of naturally observed variants; lower = stronger; >10 µg/ml means not reached at the top dose. No active / inactive call. The stated detection limit is 0.0005 µg/ml; values near or below 0.001 µg/ml lie at the floor of the assay.
# Columns and labels:
# Experiment in all cases: pseudovirus neutralization IC50; higher = weaker neutralization
# [1] = molecular target: SARS-CoV-2 Omicron BA.1 spike pseudovirus
# Protocol: (§1)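 Single-round VSV luciferase pseudovirus mixed with antibody dilutions for 1 h and put on Huh-7 cells for about a day; IC50 from the dose curve.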
# [2] = molecular target: SARS-CoV-2 Omicron BA.2 spike pseudovirus
# Protocol: as §1
# [3] = molecular target: SARS-CoV-2 Omicron BA.2.75 spike pseudovirus
# Protocol: as §1
# [4] = molecular target: SARS-CoV-2 Omicron BA.5 spike pseudovirus
# Protocol: as §1
# [5] = molecular target: SARS-CoV-2 Omicron BQ.1.1 spike pseudovirus
# Protocol: as §1
# [6] = molecular target: SARS-CoV-2 Omicron XBB spike pseudovirus
# Protocol: as §1
# [7] = molecular target: SARS-CoV-2 early D614G spike pseudovirus
# Protocol: as §1
Binder,pseudovirus neutralization IC50 [1] [µg/mL],pseudovirus neutralization IC50 [2] [µg/mL],pseudovirus neutralization IC50 [3] [µg/mL],pseudovirus neutralization IC50 [4] [µg/mL],pseudovirus neutralization IC50 [5] [µg/mL],pseudovirus neutralization IC50 [6] [µg/mL],pseudovirus neutralization IC50 [7] [µg/mL]
BD55-5406 (protein) chain 1: QITLKESGPTLVKPTQTLTLTCTFSGFSLSTGAVGVGWIRQPPGKALEWLALIYWDGDERYSPSLKNRLTITKDTSKNQVVLTMTNMDPVDTATYFCARSGSAYYDILTGYFRPGISDYWGQGTLVTVSS chain 2: IVMTQTPLSLPVTPGEPASISCRSSQSLLDSDDGNTYLDWYLQKPGQSPQLLIYTLSYRASGVPDRFSGSGSGTDFTLKISRVEAEDVGVYYCMQRIEFPGTFGQGTKLEIK,> 10,> 10,> 10,> 10,> 10,> 10,> 10
BD55-1051 (protein) chain 1: QVQLVQSGAEVKKPGSSVKVSCKASGDTFSNYAFGWVRQAPGQGLEWMGRIIPRFDVASPTRKFQGRLTISADKSTTTVYMELSSLKSDDTAIYYCVRDVVGATSVDFWGQGTQVTVSS chain 2: DVVMTQSPLSLPVTLGQTASISCRSSESLVYSDGNTYLNWFQQRPGQSPRRLIYKVSNRDSGVPDRFSGSGSGTDFTLKISRVEADDVGIYFCMQGTHWPRTFGQGTKVEIK,> 10,> 10,> 10,> 10,> 10,> 10,0.00139
BD55-5415 (protein) chain 1: EVQLVESGGGLVKPGGSLRLSCAASAFTFSTDSMSWVRQAPGKGLAWVSSISGTSSYINYADSVKGRFTISRDNAKNSLFLQMNSLRVEDTAVYYCARDPGYDFSSGYYTAIDSWGQGTLVIVSS chain 2: QPVLTQSSSASASLGSSVKLTCTLSGGHTSSIIAWHQQQPGKAPRYLMMLGGSATYNKGSGLPDRFSGSTSGAARHLTISSLQSEDEAIYYCETWDNNSRIFGGGTKLTVL,> 10,> 10,> 10,> 10,> 10,> 10,0.0327
BD55-5419 (protein) chain 1: QVQLVESGGGVVQPGTSLRLSCAVSGFDFSNYGMHWVRQAPGKGLEWVAVTWFDGDNEYYAKSVRGRFTISRDKSRNTLYLQMNSLRAEDTAIYYCARDNCSGGTCIPAPVDYWGQGTLVTVSS chain 2: SYELTQPLSVSVALGQTATITCGGDNIGSYNVHWYQQKSGQAPVLVIFRDFSRPSGIPERFSGSNSGNTATLTISRAQAGDEADYYCQVWDSSTEGYVFGTGTKVTVL,> 10,> 10,> 10,> 10,> 10,> 10,4.97
BD55-5427 (protein) chain 1: QVQLQESGPGLVKPSETLSLTCTVSGGSISSHYWSWSRQPPGKGLEWIGCVNYSGSTNYNPSLKSRVRISVDTSKSQLSLKLSSVTAADTAVYYCARGGATPYSGYDYLDPYYYAMDVWGQGTTVTVSS chain 2: EIVMTQSPATLSVSPGERVTLSCRASQSVGNNLAWYQQKPGQAPRLLIYGASTGATGIPARFSGSGSGTDFTLTISSLQSEDFAVYYCQQYNNWPPYTFGQGTKLEIR,> 10,> 10,> 10,> 10,> 10,> 10,> 10
BD55-5442 (protein) chain 1: QVQLVESGGGVVQPGRSLRLSCAASGFTFSDYDMHWVRQSPGKGLEWVAVISSDGSIKFYTDSVKGRFTISRDNSKNTLFLQMNSLTAEDTAVFYCVREGDNRAYYYGAGAFDIWGPGTMVTVSS chain 2: DIQMTQSPSSLSASVGDRVTITCRASQTISNYLNWYQQKPGKAPKLLIYAASSLQSGVPSRFSGSGSGTDFTLTISTLQPEDFATYFCQQSYSTPEVTFGQGTRLEIK,> 10,> 10,> 10,> 10,> 10,> 10,1.64
BD55-5454 (protein) chain 1: EVQLVESGGGLVQPGGSLRLSCAASGFTFSSYAMHWVRQAPGKGLEYVSSITNNGDGTFYAPSVKGRFIISRDNAKSTVYLQMGGLRPEDMAVYYCARESRAVALWGLDYWGQGTLVAVYS chain 2: DIQMTQSPSSLSASVGDRVTISCRASQTISRHLNWYQHKPGKAPKLLIYGASTLQGGVPSRFSASGSGTDFTLTISSLQPEDFATYYCQQSYITPVYTFGQGTKVEIK,> 10,> 10,> 10,> 10,> 10,> 10,> 10
BD55-5459 (protein) chain 1: QITLKESGPTLVKPTQTLTLTCTFSGFSLSTTEVGVGWIRQPPGKALEWLALIYWDDNKRYSPSLESRVTITKDTSKNQVVLTMTNMDPVDTATYYCAHSHYDFLAGYVGFDFWGQGALVTVSS chain 2: DIVMTQTPFSSPVTLGQPATISCRSSQSLVHSDGNTYLNWLQQRPGQPPRLLIYQISKRFSGVPDRFSGSGAGTDFTLKISRVEAEDVGIYYCMQATQFPHEMYTFGQGTKLVIK,> 10,> 10,> 10,> 10,> 10,> 10,0.061
BD55-1064 (protein) chain 1: QVQLVESGGGVAQPGGSLRLSCAASGFSFSTFAMHWVRQAPGTGLEWVGVIWSDGNVKHYADSVKGRFTISRDNSKNTVDLQMNNLRAEDTAVYYCARDYSATYWVTWFDPWGQGTLVTVSS chain 2: DIQLTQSPSSLSASVGDRITITCRAHQSVNKYLNWYQQKPGTAPKLLIYASSTLQSGVPSRFSGSGSGTDYTLTISSLQPEDFATYYCQQSYSTPPWTFGQGTRVEIK,> 10,> 10,> 10,> 10,> 10,> 10,0.455
BD55-5462 (protein) chain 1: EVQLVESGGGLVQPGRSLRLSCTVSGFIFGDHAISWVRQAPGKGLEWVGFIRSKAFGGTTEYAASVRGRFTISRDDSKSIAYLQMISLKTADTGVYYCARDLTYGVYQYDSTVYFPGLDAWGQGALVTVSA chain 2: DIVMTQTPLSLSVTPGQPASISCKSSQSLLHGDGKTYLYWYLQKAGQSPQLLIYEVSKRFSGVPDRFSGSGSGTDFTLKISRVEAEDVGVYYCMQSKQLRTFGQGTKVEIK,> 10,0.0452,0.382,0.531,0.51,> 10,0.00495
BD55-5476 (protein) chain 1: EVQLVESGGGLVQPGGSLRLSCVASGFAFRSYAMHWVRQAPGKRLEYVSSISSNGGLTFYADSVKGRFTISRDDSKSTLYLQMGSLTVEDMAVYYCAREGRGYYLYFDYWGQGTLVTVSS chain 2: DIQMTQSPSSLSASVGDRVTITCRASQSISSYLNWYQQKPGEAPKLLIHLASTLQSGVPSRFSGSGSGTEFTLTISTLQPEDFATYYCQQSYTTPRYTFGQGTKLEIK,> 10,> 10,> 10,> 10,> 10,> 10,> 10
BD55-5484 (protein) chain 1: QVQLAQSGSELRKPGASVKVSCDTSGHSFTSNAIHWVRQVPGQGLEWMGWINTDTGTPTYAQGFTGRFVFSLDTSARTAYLQISSLKADDTAVYYCARERDYSDYFFDYWGQGTLVTVSS chain 2: EVVMTQSPASLSVSPGERATLSCRARASLGISTDLAWYQQRPGQAPRLLIYGASTRATGIPARFSGSGSGTEFTLTISSLQSEDSAVYFCQQYANWPLTFGGGTKVEIE,0.00319,0.011,0.145,0.0132,> 10,1.09,0.0014

# Source: the supplement of paper PMC9931576
